Compound potency records, mixed from different reports. Data source: NIAID ChemDB in PubChem.

All rows: toxicity to cultured cells; endpoint: CC50

CCn: concentration that lowers growth or viability of the cells by n%.

smiles,cells,method,result
C#CCSc1n[nH]c(-c2ccco2)n1,Panc-1,,>100 µg/mL
Cc1[nH]c2ccccc2c1CCNCc1ccc(/C=C/C(=O)NO)cc1,ACH2,fluorescence,>5 µM
O=C(NCCCCl)Oc1ccc(Br)cc1C(=O)Nc1ccc(Cl)c(Cl)c1,Mono Mac 6,MTT,9.5 µM
CCSc1n[nH]c(-c2cccc(C(F)(F)F)c2)n1,Panc-1,,>100 µg/mL
CNC1CC12C1CC3CC(C1)CC2C3,HEF,,90 µg/mL
CCOc1cccc(-c2ccc(C(=O)N(Cc3cccc(OCCCCCC(=O)OC(=O)O)c3)C(C)C)cc2)c1,BJ,,>20 µM
CCOC(=O)[C@@]1(C)CC[C@]2(C)CC[C@]3(C)C(=CC(=O)[C@@H]4[C@@]5(C)CC/C(=N\OCC6(C)COC6)C(C)(C)[C@@H]5CC[C@]43C)[C@@H]2C1,CT26,MTT,49.28 µM
CCN1CCCC12C1CC3CC(C1)CC2C3,HEF,,>200 µg/mL
Oc1ccc(-c2n[nH]c(C(F)(F)F)c2-c2ccc(Br)cc2)c(O)c1,NRK-52E,resazurin,7.58 µg/mL
CCCCSc1n[nH]c(-c2ccc([N+](=O)[O-])c(C)c2)n1,Panc-1,,>100 µg/mL
Cc1cn([C@H]2C[C@H](N=[N+]=[N-])[C@@H](COP(=O)(COc3ccccc3)OC[C@@H]3O[C@H](n4ccc(N)nc4=O)CS3)O2)c(=O)[nH]c1=O,CEM-SS,,60 µM
COc1ccccc1-c1c(OC)cc(NC(C)CCCNC(=O)OC(C)(C)C)c2nc(C(F)(F)F)cc(C)c12,RAW 264.7,,>80.2 µg/mL
O=C(O)c1cn(/N=C/c2ccc(O)cc2)c(=O)c2ccccc12,HEP-2/L-929/VERO,,300 µM
O=C(NCCCCl)Oc1ccc(Cl)cc1C(=O)Nc1ccc(C(=O)c2ccccc2)cc1,Mono Mac 6,MTT,16.1 µM
CCCCSc1n[nH]c(-c2ccco2)n1,Panc-1,,>100 µg/mL
O=C(NCCCCl)Oc1ccc(Br)cc1C(=O)Nc1ccc(C(=O)c2ccccc2)cc1,Mono Mac 6,MTT,12.6 µM
CN(C)CC1CC12C1CC3CC(C1)CC2C3,HEF,,95 µg/mL
Cc1nc(Oc2ccc(S(C)(=O)=O)cc2F)ccc1CN1CCC(N2C(=O)N(c3cc(C(N)=O)c(F)cc3F)C[C@H]2c2ccccc2)CC1,HOS,,5.2 nM
CCOC(=O)[C@@]1(C)CC[C@]2(C)CC[C@]3(C)C(=CC(=O)[C@@H]4[C@@]5(C)CC/C(=N\OCc6cccc(C#N)c6)C(C)(C)[C@@H]5CC[C@]43C)[C@@H]2C1,CT26,MTT,>100 µM
COc1ccc(C)cc1OCCBr,RAJI,,>20 µM
Cc1nc(Oc2ccc(S(C)(=O)=O)cc2)ccc1CN1CCC(N2C(=O)N(c3cc(C(N)=O)c(F)cc3F)C[C@H]2c2ccccc2)CC1,HOS,,4 nM
CCOC(=O)CCCCCOc1cccc(CN(C(=O)c2ccc(-c3ccc4[nH]ccc4c3)cc2)C(C)C)c1,BJ,,>20 µM
O=C(O)c1cn(/N=C/CCc2ccccc2)c(=O)c2ccccc12,HEP-2/L-929/VERO,,750 µM
O=C(NCCCCl)Oc1ccc(Cl)cc1C(=O)Nc1ccc(Cl)c(Cl)c1,Mono Mac 6,MTT,2.5 µM
Nc1nc(Cl)c2ncn(/C=C3/C[C@H]3CO)c2n1,H-1,,>50 µM
CCCNC(=O)Oc1ccc(Cl)cc1C(=O)Nc1ccc(Cl)c(Cl)c1,Mono Mac 6,MTT,7 µM
Cc1nc(Oc2ccc(CC(=O)NC(C)C)cc2)ccc1CN1CCC(N2C(=O)N(c3cc(C(N)=O)c(F)cc3F)C[C@H]2c2ccccc2)CC1,HOS,,3.3 nM
Nc1ccn([C@@H]2CC[C@H](CO)O2)c(=O)n1,U-937,,70 µM
CN(C)c1ccc(/C=C/C=N/n2cc(C(=O)O)c3ccccc3c2=O)cc1,HEP-2/L-929/VERO,,150 µM
CCOC(=O)CCCCCOc1cccc(CN(C(=O)c2ccc(-c3ccc4ccccc4c3)cc2)C(C)C)c1,HEK 293,,>20 µM
CCSc1n[nH]c(-c2ccc([N+](=O)[O-])c(C)c2)n1,Panc-1,,>100 µg/mL
Cc1cn([C@@H]2C[C@@H](N=[N+]=[N-])[C@H](COP(=O)(CI)OC[C@H]3O[C@@H](n4cc(C)c(=O)[nH]c4=O)C[C@@H]3N=[N+]=[N-])O2)c(=O)[nH]c1=O,CEM-SS,,39 µM
O=C(O)c1cn(/N=C/c2ccccc2)c(=O)c2ccccc12,HEP-2/L-929/VERO,,100 µM
C#CCSc1n[nH]c(-c2cccc([N+](=O)[O-])c2C)n1,Panc-1,,>100 µg/mL
Cc1cn([C@@H]2C[C@@H](N=[N+]=[N-])[C@H](COP(=O)(OC[C@H]3O[C@@H](n4cc(C)c(=O)[nH]c4=O)C[C@@H]3N=[N+]=[N-])c3ccccc3)O2)c(=O)[nH]c1=O,CEM-SS,,33 µM
C#CCSc1n[nH]c(-c2ccc(Cl)cc2C)n1,Panc-1,,>100 µg/mL
COCP(=O)(OC[C@@H]1O[C@H](n2cc(C)c(=O)[nH]c2=O)C[C@H]1N=[N+]=[N-])OC[C@H]1O[C@@H](n2cc(C)c(=O)[nH]c2=O)C[C@@H]1N=[N+]=[N-],CEM-SS,,31 µM
COc1cc(NC(C)CCCN)c2nc(C(F)(F)F)cc(C)c2c1-c1ccccc1,RAW 264.7,,3.1 µg/mL
C=CCSc1n[nH]c(-c2cccc([N+](=O)[O-])c2C)n1,Panc-1,,>100 µg/mL
CCOC(=O)[C@@]1(C)CC[C@]2(C)CC[C@]3(C)C(=CC(=O)[C@@H]4[C@@]5(C)CC/C(=N\OCc6c(C)noc6C)C(C)(C)[C@@H]5CC[C@]43C)[C@@H]2C1,K562,MTT,22.49 µM

For reference, 5 entries again:

COc1cc(NC(C)CCCN)c2nc(C(F)(F)F)cc(C)c2c1-c1ccccc1 ; cells: RAW 264.7 ; result: 3.1 µg/mL
Cc1cn([C@@H]2C[C@@H](N=[N+]=[N-])[C@H](COP(=O)(OC[C@H]3O[C@@H](n4cc(C)c(=O)[nH]c4=O)C[C@@H]3N=[N+]=[N-])c3ccccc3)O2)c(=O)[nH]c1=O ; cells: CEM-SS ; result: 33 µM
CCOC(=O)CCCCCOc1cccc(CN(C(=O)c2ccc(-c3ccc4[nH]ccc4c3)cc2)C(C)C)c1 ; cells: BJ ; result: >20 µM
CCOC(=O)[C@@]1(C)CC[C@]2(C)CC[C@]3(C)C(=CC(=O)[C@@H]4[C@@]5(C)CC/C(=N\OCC6(C)COC6)C(C)(C)[C@@H]5CC[C@]43C)[C@@H]2C1 ; cells: CT26 ; method: MTT ; result: 49.28 µM
COCP(=O)(OC[C@@H]1O[C@H](n2cc(C)c(=O)[nH]c2=O)C[C@H]1N=[N+]=[N-])OC[C@H]1O[C@@H](n2cc(C)c(=O)[nH]c2=O)C[C@@H]1N=[N+]=[N-] ; cells: CEM-SS ; result: 31 µM

An empty or dashed field is not shown. Conditions beyond the fields shown may differ between rows.